Measured values from several laboratories, pooled; numbers as filed in NIAID ChemDB.

All rows: tests on isolated targets

An empty or dashed field is not shown. ICn is the concentration giving n% inhibition. Percent inhibition refers to the dose given; in toxicity tests it is the harm to the cells. Neighbouring rows are from separate reports.

compound	target	strain or isolate	dose	measure	agent	result
Nc1nc(N)c2ccc(Br)cc2n1	DHFR	-	-	IC50	Pneumocystis carinii	12 µM
Cc1cccc(N2CCN(c3cncc(-c4cc5ccccc5s4)n3)CC2C)c1	UL97 kinase	-	-	IC50	Cytomegalovirus	<100 µM
O=C(Nc1nnc(NCc2ccc3c(c2)OCO3)s1)c1ccc(F)cc1F	Polymerase	-	-	IC50	Human cytomegalovirus	>25 µM
Nc1nc(N)c2cc(F)ccc2n1	DHFR	-	-	IC50	Pneumocystis carinii	119 µM
CCNc1cncc(-c2ccc(C(N)=O)cc2)n1	UL97 kinase	-	1 µM	inhibition	Cytomegalovirus	<50%
CCCCCCCCCCCCC/C=C/[C@@H](O)[C@H](CO[C@@H]1O[C@H](CO)[C@H](O)[C@H](OS(=O)(=O)O)[C@H]1O)NC(=O)CCCCCCCCCCCCCCCCCCCCCCC	Sialidase	Influenza A/Yamanashi/2/77 (H3N2)	200 µM	inhibition	Influenza A virus	94.1%
CC(=O)NCCNc1nnc(NC(=O)c2c(C(C)C)cc(C(C)C)cc2C(C)C)s1	Polymerase	-	-	IC50	Human cytomegalovirus	>25 µM
COc1ccc(OC)c(N(C)Cc2csc3nc(N)nc(N)c23)c1	DHFR	-	-	IC50	Pneumocystis carinii	>10 µM
O=C(O[C@@H]1O[C@@H]2COC(=O)c3cc4c(O)c(O)c3-c3c(cc(O)c(O)c3O)C(=O)O[C@H]2[C@H](OC(=O)c2cc(O)c(O)c(O)c2)[C@H]1OC(=O)c1cc(O)c(O)c(O)c1Oc1cc2c(c(O)c1O)-c1c(cc(O)c(O)c1O)C(=O)OC[C@H]1OC(O)[C@H](OC(=O)c3cc(O)c(O)c(O)c3O4)[C@@H](OC(=O)c3cc(O)c(O)c(O)c3)[C@@H]1OC2=O)c1cc(O)c(O)c(O)c1	DNA polymerase	-	2.5 µg/mL	inhibition	Epstein-Barr virus	30.4%
O=C(Nc1nnc(NCC(c2ccccc2)c2ccccc2)s1)c1ccc(F)cc1F	Polymerase	-	-	IC50	Human cytomegalovirus	>25 µM
Cc1c(-c2ccc(C=C3SC(=S)N(c4ccc(C(=O)O)cc4)C3=O)o2)sc2ccc(Cl)cc12	NS5 polymerase	-	-	IC50	Bovine viral diarrhea virus	≤1 µM
COc1cc(N2C(N)=NC(N)=NC2(C)C)c(OC)cc1Cl	DHFR	-	-	IC50	Toxoplasma gondii	>60 µM
COc1ccc(OC)c(NCc2csc3nc(N)nc(N)c23)c1	DHFR	-	10 µM	inhibition	Toxoplasma gondii	<30%
CSCCCN1C(=O)c2ccccc2C(CC(=O)c2ccccc2)C1=O	Protease	Serotype 14	-	IC50	Rhinovirus	>100 µM
Fc1ccccc1N1CCN(c2cncc(-c3ccoc3)n2)CC1	UL97 kinase	-	-	IC50	Cytomegalovirus	<10 µM
CC1(C)O[C@@H]2O[C@H]3C(C4N[C@@H](c5ccccc5)[C@H](c5ccccc5)N4)=NO[C@H]3[C@@H]2O1	Beta-galactosidase	-	-	IC50	Aspergillus niger	>1000 µM
Fc1cccc(-c2cncc(N3CCN(c4ccncc4)CC3)n2)c1	UL97 kinase	-	10 µM	inhibition	Cytomegalovirus	>15%
O=C(O)CN1C(=O)C(=Cc2ccc(-c3ccc(Cl)c(Cl)c3)o2)SC1=S	NS5 polymerase	-	-	IC50	Bovine viral diarrhea virus	≤1 µM
CSCCCN1C(=O)Cc2ccccc2C1=O	Protease	Serotype 2	-	IC50	Rhinovirus	>200 µM
CCc1nc2nc(N)nc(N)c2c2c1CCCC2	DHFR	-	-	IC50	Pneumocystis carinii	>30 µM
COc1cccc(N2CCN(c3cncc(-c4ccc(C(N)=O)cc4)n3)CC2)c1	UL97 kinase	-	1 µM	inhibition	Cytomegalovirus	<50%
O=C(O)CCN1C(=O)C(=Cc2ccc(C#Cc3ccccc3)o2)SC1=S	NS5 polymerase	-	-	IC50	Bovine viral diarrhea virus	≤1 µM
CCOC(=O)N1CCC(Nc2nnc(NC(=O)c3cc4ccccc4s3)s2)CC1	Polymerase	-	-	IC50	Human cytomegalovirus	>25 µM
NC1CCN(c2nc3c(cc2F)c(=O)c(C(=O)O)cn3-c2ccc(F)cc2F)C1	DNA gyrase	J24 (quinolone- penicillin-sensitive)	-	IC50	Streptococcus pneumoniae	30.1 µg/mL
COc1cccc(N2CCN(c3cncc(-c4cccc(C(C)=O)c4)n3)CC2)c1	UL97 kinase	-	-	IC50	Cytomegalovirus	<10 µM
O=C(O)CCN1C(=O)C(=Cc2ccc(-c3ccc(Br)cc3)o2)SC1=S	NS5 polymerase	-	-	IC50	Bovine viral diarrhea virus	≤1 µM
CCOc1cccc2nc(N)nc(N)c12	DHFR	-	-	IC50	Toxoplasma gondii	8.7 µM
O=C(O)c1ccc(N2C(=O)C(=Cc3ccc(-c4ccccc4C(F)(F)F)o3)SC2=S)cc1	NS5 polymerase	-	-	IC50	Bovine viral diarrhea virus	≤1 µM
CCCC(=O)C1C(=O)N(CC(=O)N2CCCC2C(=O)O)C(=O)c2ccccc21	Protease	Serotype 14	-	IC50	Rhinovirus	56.9 µM
O=C(O)CCN1C(=O)C(=Cc2ccc(-c3ccc(Cl)s3)o2)SC1=S	NS5 polymerase	-	-	IC50	Bovine viral diarrhea virus	≤1 µM
OCC1=NO[C@H]2[C@H](O)C(O)O[C@@H]12	Beta-galactosidase	-	-	IC50	Aspergillus niger	>1000 µM
c1ccc(Oc2ccc(-c3cncc(N4CCN(c5ccncc5)CC4)n3)cc2)cc1	UL97 kinase	-	1 µM	inhibition	Cytomegalovirus	<50%
O=C1O[C@H]2C(O)O[C@@H]3COC(=O)c4cc(O)c(O)c(O)c4-c4c(cc(c(O)c4O)Oc4c(cc(O)c(O)c4O)C(=O)O[C@@H]4[C@@H](OC(=O)c5cc(O)c(O)c(O)c5)[C@@H]5OC(=O)c6cc(O)c(O)c(O)c6-c6c(cc7c(c6O)OC6C(O7)C1=CC(=O)C6(O)O)C(=O)OC[C@H]5O[C@H]4O)C(=O)O[C@H]3[C@@H]2OC(=O)c1cc(O)c(O)c(O)c1	DNA polymerase	-	2.5 µg/mL	inhibition	Epstein-Barr virus	37.2%
Cc1ccc(-c2ccc(C=C3SC(=S)NC3=O)s2)cc1	NS5 polymerase	-	-	IC50	Bovine viral diarrhea virus	≤1 µM
CSCCCN1C(=O)c2ccccc2C(C(=O)c2ccccc2)C1=O	Protease	Serotype 14	-	IC50	Rhinovirus	130.6 µM
Clc1ccc(N2CCN(c3cncc(-c4ccc5ccccc5c4)n3)CC2)cc1	UL97 kinase	-	1 µM	inhibition	Cytomegalovirus	<50%
O=C(Nc1nnc(NCCCNC2CCCCC2)s1)c1ccc(F)cc1F	Polymerase	-	-	IC50	Human cytomegalovirus	<25 µM
CSc1cccc2nc(N)nc(N)c12	DHFR	-	-	IC50	Pneumocystis carinii	1.1 µM
CC(C)(C)OC(=O)CCNc1nnc(NC(=O)c2ccc3c(c2)C(=O)OC3=O)s1	Polymerase	-	-	IC50	Human cytomegalovirus	>25 µM
O=C(O)c1ccc(N2C(=O)C(=Cc3ccc(C#Cc4ccccc4)o3)SC2=S)cc1	NS5 polymerase	-	-	IC50	Bovine viral diarrhea virus	≤1 µM
COc1ccc(-c2cncc(N3CCN(c4ccc(C(F)(F)F)cc4)CC3)n2)cc1OC	UL97 kinase	-	10 µM	inhibition	Cytomegalovirus	>15%
N[C@@H]1CN(c2c(F)cc3c(=O)c(C(=O)O)cn([C@@H]4C[C@@H]4F)c3c2Cl)CC12CC2	Topoisomerase IV	J24 (quinolone- penicillin-sensitive)	-	IC50	Streptococcus pneumoniae	1.88 µg/mL

For reference, 4 entries again:

{"compound": "CSc1cccc2nc(N)nc(N)c12", "target": "DHFR", "measure": "IC50", "agent": "Pneumocystis carinii", "result": "1.1 µM"}
{"compound": "O=C(O)CN1C(=O)C(=Cc2ccc(-c3ccc(Cl)c(Cl)c3)o2)SC1=S", "target": "NS5 polymerase", "measure": "IC50", "agent": "Bovine viral diarrhea virus", "result": "≤1 µM"}
{"compound": "CCOC(=O)N1CCC(Nc2nnc(NC(=O)c3cc4ccccc4s3)s2)CC1", "target": "Polymerase", "measure": "IC50", "agent": "Human cytomegalovirus", "result": ">25 µM"}
{"compound": "CSCCCN1C(=O)c2ccccc2C(C(=O)c2ccccc2)C1=O", "target": "Protease", "strain or isolate": "Serotype 14", "measure": "IC50", "agent": "Rhinovirus", "result": "130.6 µM"}